{"source": "paper PMC9445589", "about": "(Frontiers in Microbiology, 2022)", "key": {"peptide made by a vendor": {"assay": "peptide made by a vendor", "conditions": "whole synthesis, HPLC and mass spectrometry"}, "[1]": {"tested_on": "A. baumannii YQ4 transcriptome", "assay": "RNA-seq analysis, differentially expressed genes", "assay_type": "cell-based, Acinetobacter baumannii", "conditions": "1/4 MIC (4 μg/ml), M9 minimal medium"}}, "note": "For part of these data: HELM strings list residues between dots; [ac] is acetyl, [am] amide, other brackets name non-standard units. Non-standard residues stand in square brackets, D forms with d. Residues, ends and D or L forms follow the SMILES beside them. Aib = CC(C)(N)C(=O)O", "data": [{"compound": "PEPTIDE1{[ac].A.S.[Aib].L.R.K.L.[Aib].K.R.L.L.[am]}$$$$V2.0", "values": [{"measurement": "purity (crude or final not stated)", "setting": "peptide made by a vendor", "value": 95, "unit": "%"}]}, {"compound": "CC(=O)N[C@@H](C)C(=O)N[C@@H](CO)C(=O)NC(C)(C)C(=O)N[C@@H](CC(C)C)C(=O)N[C@@H](CCCNC(=N)N)C(=O)N[C@@H](CCCCN)C(=O)N[C@@H](CC(C)C)C(=O)NC(C)(C)C(=O)N[C@@H](CCCCN)C(=O)N[C@@H](CCCNC(=N)N)C(=O)N[C@@H](CC(C)C)C(=O)N[C@@H](CC(C)C)C(N)=O", "note": "[COG1410, acetyl-AS-Aib-LRKL-Aib-KRLL-amide] (Ac-AS[Aib]LRKL[Aib]KRLL-NH2)", "values": [{"measurement": "genes with decreased transcription level", "setting": "[1]", "value": 37}, {"measurement": "genes with increased transcription level", "setting": "[1]", "value": 55}]}]}
